Pooled drug test results. Numbers come from NIAID ChemDB, via PubChem.

Shared fields: toxicity to cultured cells; cell line: TZM-bl; read-out: CC50

CCn is the concentration with n% toxicity to the cells.

compound,read by,result
Cc1cn(C2CC(n3nnc(C4(C(F)(F)F)OC(=O)Nc5ccc(Cl)cc54)c3C3CC3)C(CO)O2)c(=O)[nH]c1=O,MTS,57.57 µg/mL
COc1ccc(N(C)C(=O)[C@H](Cc2cc(F)cc(F)c2)NC(=O)c2cccc(-c3cn(C4CC(n5cc(C)c(=O)[nH]c5=O)OC4CO)nn3)c2)cc1,MTT,>27.94 µM
O=C1NC(=NCc2ccc(F)cc2)S/C1=C\c1ccc(-c2ccc(C(=O)O)c(O)c2)o1,XTT,>50 µM
Oc1cccc2ccc(/C=N/Nc3ccc(Cl)cc3Cl)nc12,MTT,52.68 µM
Cc1cc(/C=C\C#N)cc(C)c1Nc1nc(N)nc(Nc2ccc(C#N)cc2)n1,WST,30.83 µM
O=C(Cn1ccc(=O)[nH]c1=O)Nc1ccc([N+](=O)[O-])cn1,MTT,6.32 µM
Clc1ccc2nc(/C=C/c3ccc(OCc4ccccc4)cc3)cc(Cl)c2c1,MTT,63.5 µM
COc1cccc2ccc(/C=C/C(=O)Nc3ccccc3)nc12,MTT,98.24 µM
COc1cccc(-n2nc(-c3ccc(C)[nH]c3=O)cc2-c2ccccc2)c1,MTT,322 µM
NCCC(NC(=O)c1ccc(-c2ccc(C(F)(F)F)cn2)[nH]1)c1cnc(CO)s1,MTS / absorbance,>122 µM
Cc1cc(/C=C/C#N)cc(C)c1Oc1nc(N)nc(Nc2ccc(C#N)cc2)n1,WST,19.13 µM
NC[C@@H](NC(=O)c1ccc(-c2ccc(Cl)cn2)[nH]1)c1cnc(CO)s1,MTS,>106 µM
Cc1ccc(N/N=C/c2ccc3cccc(O)c3n2)cc1C,MTT,34.32 µM
COc1ccc(/C=C/c2cc(Cl)c3ccccc3n2)c(OC)c1,MTT,40.52 µM
C[C@@H]1O[C@@H](Oc2c(-c3ccc(O)cc3)oc3cc(O)cc(O)c3c2=O)[C@H](O[C@@H]2O[C@H](COC(=O)/C=C/c3ccc(O)cc3)[C@@H](O)[C@H](O)[C@H]2O)[C@H](O)[C@H]1O,absorbance,>100 µg/mL
COc1ccc(N/N=C/c2ccc3cccc(O)c3n2)cc1,MTT,138 µM
Clc1ccc2nc(/C=C/c3ccc(N4CCOCC4)cc3)cc(Cl)c2c1,MTT,35.3 µM
NCC(NC(=O)c1ccc(-c2ccc3c(c2)OCO3)[nH]1)c1ncc(CO)s1,MTS,>100 µM
O=C1NC(=NCCc2ccc(F)cc2)S/C1=C\c1ccc(-c2ccc(C(=O)O)c(O)c2)o1,XTT,>50 µM
CNc1nc(Nc2ccc(C#N)cc2)nc(Oc2c(C)cc(/C=C/C#N)cc2C)n1,WST,20.04 µM
CC(C)c1ccc(N/N=C/c2ccc3cccc(O)c3n2)cc1,MTT,72.05 µM
NC[C@H](NC(=O)c1ccc(-c2ccc(Cl)cn2)[nH]1)c1cnc(CO)s1,MTS,>106 µM
Cc1ccc(-n2nc(-c3ccc(C)[nH]c3=O)cc2-c2ccccc2)cc1,MTT,136 µM
Cc1nc(N2C(=O)CSC2c2c(Br)cncc2Br)ccc1Br,MTT,26.9 µg/mL
O=C(Cn1ccc(=O)[nH]c1=O)Nc1ccc(Br)cn1,MTT,215 µM
COC(=O)CCCn1cc(-c2cccc(C(=O)N[C@@H](Cc3ccccc3)C(=O)N(C)c3ccc(OC)cc3)c2)nn1,MTT,>35.99 µM
Cc1cc(/C=C/C#N)cc(C)c1Oc1nc(Nc2ccc(C#N)cc2)nc(N(C)C)n1,WST,7.85 µM
CN[C@@H]1[C@@H](O)[C@@H](O[C@@H]2[C@@H](O)[C@H](O[C@H]3OC(CN)=CC[C@H]3N)[C@@H](N)C[C@H]2N)OC[C@]1(C)O,-,157.1 µM
Cc1cn([C@H]2C[C@H](N=[N+]=[N-])[C@@H](CO)O2)c(=O)[nH]c1=O,MTT,872 µM
Cc1cc(C)cc(Cc2c(I)c(=O)[nH]c(=O)n2COCc2ccccc2)c1,XTT,76.4 µM
COc1ccc(-c2nnc(-c3ccc4cccc(OC)c4n3)o2)cc1OC,MTT,134 µM
COc1cccc(/C=C/c2cc(Cl)c3cc(Cl)ccc3n2)c1OC,MTT,19.71 µM
Cc1ccc(N/N=C/c2ccc3cccc(O)c3n2)c(C)c1,MTT,368 µM
NC[C@@H](NC(=O)c1ccc(-c2ccc(Cl)cn2)[nH]1)c1csc(CO)n1,MTS,>106 µM
Clc1cc(/C=C/c2ccc3c(c2)OCO3)nc2ccccc12,MTT,27.12 µM
Brc1cccc(N=Cc2cc3ccccc3nc2Nc2cccc(Br)c2)c1,MTT,103.1 µM
Cc1cc(-c2ccc(C(F)(F)F)cn2)[nH]c1C(=O)NC(C)(CCN)c1nc(CO)cs1,MTS / absorbance,>68.3 µM
CCc1ccccc1-n1nc(-c2ccc(C)[nH]c2=O)cc1-c1ccccc1,MTT,18.23 µM
O=C1NC(=NCCc2ccc(F)cc2)S/C1=C\c1ccc(-c2cccc([N+](=O)[O-])c2)o1,XTT,>50 µM
Cc1cn([C@H]2C[C@H](N=[N+]=[N-])[C@@H](CO)O2)c(=O)[nH]c1=O,MTT,872 µM
Cc1ccc(-c2cc(-c3ccccc3)n(-c3ccc(Cl)cc3)n2)c(=O)[nH]1,MTT,532 µM
O=C(CCC(=O)Nc1ccc([N+](=O)[O-])cn1)Nc1ccc([N+](=O)[O-])cn1,MTT,442.5 µM
NCCC(NC(=O)c1ccc(-c2ccc(F)cn2)[nH]1)c1nc(CO)cs1,MTS / absorbance,>138 µM
O=C1NC(=Nc2ccc(F)c(Cl)c2)S/C1=C\c1ccc(-c2ccc(C(=O)O)c(O)c2)o1,XTT,>50 µM
Clc1cc(/C=C/c2cc3ccccc3o2)nc2ccccc12,MTT,70.97 µM
COc1cc2c(=O)[nH]c(-c3ccc[nH]3)nc2c(OC)c1OC,fluorescence,68.6 µM
Cc1ccc(/C=C/c2cc(Cl)c3cc(Cl)ccc3n2)cc1,MTT,46.47 µM
CCc1ccccc1N/N=C/c1ccc2cccc(O)c2n1,MTT,64.42 µM
Cc1ccc(-c2cc(-c3ccccc3)n(-c3ccc(Br)cc3)n2)c(=O)[nH]1,MTT,728 µM
COc1ccc(Cn2cc(-c3ccc4c(c3)OCO4)c3ccc(-c4ccc5ccccc5c4)nc32)cc1,MTT,58.12 µM
CC(C)(N)CC(NC(=O)c1ccc(-c2ccc(C(F)(F)F)cn2)[nH]1)c1nc(CO)cs1,MTS / absorbance,61 µM
CCCCCCCCCCCCCCCCCC1N[C@@H](CO)[C@H](O)[C@H](O)[C@@H]1O,resazurin,24 µM
Cc1cc(C)nc(N2C(=O)CSC2c2c(Cl)cncc2Cl)c1,MTT,37.3 µg/mL
CC(C)C[C@H](NC(=O)c1ccc(NC(=O)[C@@H](N)Cc2c[nH]c3ccccc23)c(OCCc2c[nH]c3ccccc23)c1)C(=O)O,absorbance,>50 µM
Cc1ccccc1N/N=C/c1ccc2cccc(O)c2n1,MTT,43.63 µM
Cc1cc(/C=C/C#N)cc(C)c1Nc1nc(N)nc(Nc2ccc(C#N)cc2)n1,WST,34.65 µM
O=C(CCC(=O)Nc1ccc(Br)cn1)Nc1ccc(Br)cn1,MTT,487.6 µM
CC(C)(C)c1cc(N2C(=O)CSC2c2c(F)cccc2F)no1,MTT,45.9 µg/mL
COc1cccc2ccc(C(CC(=O)Nc3ccccc3)Nc3ccccc3)nc12,MTT,79.15 µM
Cc1cn(CC(=O)Nc2ccc(Br)cn2)c(=O)[nH]c1=O,MTT,56.5 µM
CC1=C(CO)CC(C(C)C2CCC3C4CC=C5CC(OC6OC(COC7OC(CO)C(O)C(O)C7O)C(O)C(O)C6O)CC(O)C5(C)C4CCC23C)OC1=O,absorbance,>100 µg/mL
Cc1ccc(-c2cc(-c3ccccc3)n(-c3ccccc3)n2)c(=O)[nH]1,MTT,140 µM
Cc1cccc(N2C(=O)CSC2c2c(Br)cncc2Br)n1,MTT,26.7 µg/mL
COc1ccc(/C=C/c2cc(Cl)c3ccccc3n2)cc1,MTT,53.08 µM
O=C(CCC(=O)n1cnc2c([N+](=O)[O-])cccc21)n1cnc2c([N+](=O)[O-])cccc21,MTT,185 µM

Again, the opening 9 rows:

compound,read by,result
Cc1cn(C2CC(n3nnc(C4(C(F)(F)F)OC(=O)Nc5ccc(Cl)cc54)c3C3CC3)C(CO)O2)c(=O)[nH]c1=O,MTS,57.57 µg/mL
COc1ccc(N(C)C(=O)[C@H](Cc2cc(F)cc(F)c2)NC(=O)c2cccc(-c3cn(C4CC(n5cc(C)c(=O)[nH]c5=O)OC4CO)nn3)c2)cc1,MTT,>27.94 µM
O=C1NC(=NCc2ccc(F)cc2)S/C1=C\c1ccc(-c2ccc(C(=O)O)c(O)c2)o1,XTT,>50 µM
Oc1cccc2ccc(/C=N/Nc3ccc(Cl)cc3Cl)nc12,MTT,52.68 µM
Cc1cc(/C=C\C#N)cc(C)c1Nc1nc(N)nc(Nc2ccc(C#N)cc2)n1,WST,30.83 µM
O=C(Cn1ccc(=O)[nH]c1=O)Nc1ccc([N+](=O)[O-])cn1,MTT,6.32 µM
Clc1ccc2nc(/C=C/c3ccc(OCc4ccccc4)cc3)cc(Cl)c2c1,MTT,63.5 µM
COc1cccc2ccc(/C=C/C(=O)Nc3ccccc3)nc12,MTT,98.24 µM
COc1cccc(-n2nc(-c3ccc(C)[nH]c3=O)cc2-c2ccccc2)c1,MTT,322 µM

Lines come from different laboratories, so protocols vary. An empty or dashed field is not shown.